Experimental data: PubChem BioAssay AID1259414 (Drosophila RNAi Screening Center, 2018)
In all, the deposit lists about 24,000 reagents; this is a random part of those that have a named target and a result. In the full data, about 1,210 (5%) got an active call. 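Inactive calls also include excluded dsRNAs with several or no targets, genes unexpressed in JW18, and well A1, regardless of score.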 Entries without a mark were called inactive. A plus sign joins genes that one reagent is predicted to hit. No sequences are given here.

- Assay: 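Fly genes that alter Wolbachia amount inside host cells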 (primary screen)
- Cells: Drosophila JW18 cells infected with Wolbachia
- Knock-down reagent: long dsRNA against Drosophila genes, 0.25 µg dsRNA per well of a 384-well plate
- Time to read-out: 5 days
- Conditions: cells persistently infected with Wolbachia before knock-down; no added drug
- Measured: 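Automated imaging of bacterial rRNA staining divided by host cell count, reported as plate-normalised robust z-score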
- Reading the numbers: Wolbachia per cell robust z: higher = more Wolbachia per host cell than the plate typical
- Rule for the call: 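Hit when robust z is 1.5 or more, or -1.5 or less, in at least two of three replicates; excludes dsRNAs with several or no targets, genes not expressed in JW18 and well A1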

target gene | DRSC id | Wolbachia per cell robust z, rep 1 | Wolbachia per cell robust z, rep 2 | Wolbachia per cell robust z, rep 3
PIG-K (Phosphatidylinositol glycan anchor biosynthesis class K) | DRSC18496 | -0.261 | -1.73 | -0.402
CG15160 | DRSC02461 | 0.435 | 0.00968 | 1.61
CG15160 | DRSC27129 | 0.665 | -0.86 | 0.0141
CG9813 | DRSC16569 | -3.6 | -0.848 | -0.773
CG9813 | DRSC26207 | 0.539 | -0.0711 | -0.201
Gycalpha99B (Guanylyl cyclase alpha-subunit at 99B) | DRSC16690 | 1.03 | 0.775 | 0.475
Gycalpha99B (Guanylyl cyclase alpha-subunit at 99B) | DRSC24782 | 0.29 | -1.65 | -0.979
meep | DRSC07948 | 0.47 | 3.4 | 0.888
meep | DRSC25511 | 0.551 | 1.32 | 0.553
DUBAI (Deubiquitinating apoptotic inhibitor) | DRSC07281 | -0.371 | -1.32 | -0.208
Zasp66 (Z band alternatively spliced PDZ-motif protein 66) | DRSC08932 | 0.0728 | 0.731 | 0.623
Zasp66 (Z band alternatively spliced PDZ-motif protein 66) | DRSC10631 | -0.481 | -8.61 | 0.108
Zasp66 (Z band alternatively spliced PDZ-motif protein 66) | DRSC10632 | -2.74 | 1.6 | 0.983
CG13272 | DRSC02249 | -0.329 | -2.34 | 0.467
CG13272 | DRSC22910 | -1.36 | 0.137 | -1.25
CG13272 | DRSC28613 | 0.387 | -0.0221 | 0.299
CG6790 | DRSC16117 | -1.8 | -0.489 | -0.556
CG17145 | DRSC10247 | 0.485 | 0.478 | -0.418
Snm1 | DRSC12130 | -0.994 | -1.04 | -0.896
CG8478 | DRSC16427 | -0.388 | -0.846 | -0.967
Or98b (Odorant receptor 98b) | DRSC16775 | 0.158 | -0.798 | -0.269
Or98b (Odorant receptor 98b) | DRSC21751 | -2.25 | 0.62 | -1.2
CG13875 | DRSC08345 | -1.75 | -0.17 | -0.0626
SPR (Sex peptide receptor) | DRSC17886 | 0.253 | -1.25 | 0.406
SPR (Sex peptide receptor) | DRSC18114 | 0.215 | 0.307 | 0.444
SPR (Sex peptide receptor) | DRSC21557 | -0.0447 | -0.106 | -0.442
sws (swiss cheese) | DRSC18843 | -0.139 | 0.775 | 0.196
Dsor1 (Downstream of raf1) | DRSC18462 | -1.03 | 1.4 | -0.511
Dsor1 (Downstream of raf1) | DRSC27547 | 0.527 | 0.124 | -0.106
elgi (early girl) | DRSC10242 | 0.512 | 1.25 | 0.00185
elgi (early girl) | DRSC29665 | -0.0905 | -0.596 | 0.455
CG11456 | DRSC11665 | 0.638 | 0.727 | 0.342
CG14742 | DRSC14962 | -1.09 | 0.363 | 0.495
Sfp24Bb (Seminal fluid protein 24Bb) | DRSC40627 | -0.367 | 0.455 | -0.793
Cyp313a3 (Cytochrome P450 313a3) | DRSC16626 | 0.201 | 0.607 | -5.02
mey (morpheyus) | DRSC14468 | -0.81 | -7.59 | -3.36
mey (morpheyus) | DRSC27364 | -5.12 | -0.0344 | -0.388
CG18135 | DRSC10295 | 0.00487 | 0.632 | 0.00386
Als2 (Amyotrophic lateral sclerosis 2) | DRSC11806 | -0.616 | 0.287 | 0.783
CG12862 | DRSC06202 | 0.251 | -0.673 | 0.471
CG4332 | DRSC19890 | -0.134 | 0.933 | -5.92
su(r) (suppressor of rudimentary) | DRSC18705 | -0.647 (active) | -9.35 | -2.52
Gr64c + Gr64b | DRSC08444 | 0.458 | 0.0326 | -3.06
Gr64c + Gr64b | DRSC08445 | -1.05 | 0.649 | -4.49
Cec2 (Cecropin 2) | DRSC21885 | -1.4 | -0.0945 | -1.58
Cec2 (Cecropin 2) | DRSC29067 | -0.675 | -1.88 | -0.99
Gle1 (Gle1 RNA export mediator) | DRSC06485 | -1.35 | 0.0462 | 1.16
Gle1 (Gle1 RNA export mediator) | DRSC29960 | -3.58 (active) | -0.221 | -5.13
btz (barentsz) | DRSC14566 | -1.34 | -0.00624 | -1.54
btz (barentsz) | DRSC23613 | 1.4 | 0.662 | 0.676
Or33c (Odorant receptor 33c) | DRSC03388 | -4.43 | -0.544 | -0.835
CG14374 | DRSC14834 | 0.854 | -0.0732 | 0.89
CG1271 | DRSC08290 | 0.866 | -0.465 | 0.954
CG34454 | DRSC37913 | -0.111 | -0.335 | -1.94
Ppt2 (Palmitoyl-protein Thioesterase 2) | DRSC02786 | -8.67 (active) | -3.2 | 0.951
Ppt2 (Palmitoyl-protein Thioesterase 2) | DRSC26027 | 0.535 (active) | -1.9 | -2.27
CG33090 | DRSC01908 | 0.316 | 0.559 | 0.204
CG33090 | DRSC27923 | 0.481 | 0.0993 | 0.0843
Alg10 (ALG10 alpha-1,2-glucosyltransferase) | DRSC10892 | 0.0757 | -1.45 | 0.302
spaw (spacewatch) | DRSC06824 | -0.0455 | -1.63 | 0.126
NO66 (Nucleolar protein 66) | DRSC18252 | -0.392 | -0.847 | -0.155
CG1468 | DRSC17946 | -0.269 | 0.393 | -0.959
CG1468 | DRSC25538 | 1.27 | 0.553 | -0.39
Tsp42Ep (Tetraspanin 42Ep) | DRSC06871 | -0.274 | 0.000616 | 0.132
Fer3 (48 related 3) | DRSC16133 | -9.93 | -0.484 | -1.61
Fer3 (48 related 3) | DRSC26669 | -0.636 | 0.0453 | 0.61
Fer3 (48 related 3) | DRSC39065 | -1.73 | -1.73 | -0.548
CG32643 | DRSC18962 | 0.596 | -0.231 | 0.933

9 of these entries, set out differently.
target gene	DRSC id	Wolbachia per cell robust z, rep 1	Wolbachia per cell robust z, rep 2	Wolbachia per cell robust z, rep 3
meep	DRSC07948	0.47	3.4	0.888
meep	DRSC25511	0.551	1.32	0.553
DUBAI (Deubiquitinating apoptotic inhibitor)	DRSC07281	-0.371	-1.32	-0.208
Zasp66 (Z band alternatively spliced PDZ-motif protein 66)	DRSC08932	0.0728	0.731	0.623
Zasp66 (Z band alternatively spliced PDZ-motif protein 66)	DRSC10631	-0.481	-8.61	0.108
Zasp66 (Z band alternatively spliced PDZ-motif protein 66)	DRSC10632	-2.74	1.6	0.983
CG13272	DRSC02249	-0.329	-2.34	0.467
CG13272	DRSC22910	-1.36	0.137	-1.25
CG13272	DRSC28613	0.387	-0.0221	0.299
